These results are taken from publication PMC12153317 (mBio, 2025).

The target of assay [1] is full-length, membrane-anchored A/Aichi/02/1968(H3N2)(X-31) HA on 293F cells (Influenza A virus …, UniProt P03437). Briefly: flow cytometry on cells. In general terms: In flow cytometry, cells or beads pass a laser one at a time.
Assay [2] has as its target H3 A/Aichi/02/1968(X31) full-length HA ectodomain (FLsE) trimer, His6-tagged (Influenza A virus …, UniProt P03437). Briefly: BLI.

B1: S5V2-29 recombinant human IgG (antibody, V domains shown)
VH: QVQLQESGPGLVKPSETLSLTCTVSGGSVSSNIYYWSWIRQTPGKGLEWLGYFYHSGSSNYNPSLKSRVTISGDMSKNQFSLKLKSVTAADTAIYYCARGGVENLMLVAVIQEMWYFDLWGRGTLVTVSG
VL: DIQMTQTPSSLSASVGDRVTITCRASQSIGASLNWYQQKPGEAPKFLIYAASNLQSGVPSRFSGSGSGTDFTLTISSLQPEDFATYYCQQQGTFGQGTKLEIK
notes: copies: 2 + 2
On to B1, for which the binding result in assay [1] is recorded as “binds”.

B2: CR8020 Fab (Fab, V domains shown)
VH: QVQLQQSGAEVKTPGASVKVSCKASGYTFTSFGVSWIRQAPGQGLEWIGWISAYNGDTYYAQKFQARVTMTTDTSTTTAYMEMRSLRSDDTAVYYCAREPPLFYSSWSLDNWGQGTLVTVSS
VL: EIVMTQSPGTLSLSPGERATLSCRASQSVSMNYLAWFQQKPGQAPRLLIYGASRRATGIPDRISGSGSGTDFTLTISRLEPADFAVYYCQQYGTSPRTFGQGAKVEIK
notes: source: 293F, transient transfection, purified (TALON resin, Superdex 200)
B2: the binding result in assay [2] is listed as “binds”.

B3: HC19 recombinant human IgG (antibody, V domains shown)
VH: QVQLKESGPGLVAPSQSLSITCTVSGFLLISNGVHWVRQPPGKGLEWLGVIWAGGNTNYNSALMSRVSISKDNSKSQVFLKMKSLQTDDTAMYYCARDFYDYDVFYYAMDYWGQGTSVTVSS
VL: QAVVTQESALTTSPGETVTLTCRSSTGAVTTSNYANWVQEKPDHLFTGLIGGTNNRAPGVPARFSGSLIGDKAALTITGAQTEDEAIYFCALWYSNHWVFGGGTKLTVL
notes: copies: 2 + 2
Regarding B3, in assay [1], the binding result is given as “binds”.

B4: S8V1-157 recombinant human IgG1 (antibody, V domains shown)
VH: EVQLVQSGAEVKKPGASVKVSCKVSGYRLTALSMHWVRQAPGKGLEWMGGFDPEEDETIYAQNFQGRVTLTEDTSTDTVYMELSSLRSEDTGVYYCATLMGANPFDYWGQGTLIIVSG
VL: not shown
notes: human IgG1; also called rIgG; source: 293F, transient transfection, purified (Protein A agarose); copies: 2 + 2
Consider B4, for which the binding result in assay [1] is recorded as “binds”.
